These are literature values, as cited in patent US9168275B2 (priority 2000, dated 2015).

The test system of the data set is bacteria. As to conditions: cited from earlier work.

Consider ramoplanin, for which the Cross-resistance with vancomycin result is given as “not cross-resistant” and the “Resistance engendered in bacteria” value is listed as “very little to no resistance”.
